Anti-infective test results gathered from many reports (values: NIAID ChemDB through PubChem).

Common to all: whole-cell or culture tests; agent: HIV-1; cell line: MT-4; endpoint: EC50

Lines come from different laboratories, so protocols vary.

SMILES	strain or isolate	mutations	read by	value
CCC[C@@]1(CCc2ccccc2)CC(O)=C([C@H](CC)c2cccc(NS(=O)(=O)c3ccc(C(F)(F)F)cn3)c2)C(=O)O1	IIIB	-	-	0.7 µM
CC(C)[C@@H]1[C@H](OC(=O)N[C@@H](Cc2ccccc2)[C@H](O)CN2C[C@H]3CCC[C@H]3C[C@H]2C(=O)NC(C)(C)C)CCS1(=O)=O	IIIB	-	p24	<0.1 µM
O=C(NCCc1ccc(O)c(O)c1)c1cc2cc(O)c(O)cc2[nH]1	IIIB	-	MTT	46 µM
O=c1ccn(C[C@H]2C[C@@]2(CO)c2ccccc2)c(=O)[nH]1	-	-	cytopathic effect	>100 µg/mL
COc1ccc(S(=O)(=O)N(CC(C)C)CC(O)C(NC(=O)OCc2ccccc2)Sc2ccccc2)cc1	BRU	-	cytopathic effect	0.1–1 µM
Cc1ccnc(C(=O)CC(=O)c2cc(Cc3ccccc3)cc(CN3CCCS3(=O)=O)c2)c1	IIIB	-	p24	<0.51 µM
O=C(NCCCN1CCN(CCCNC(=O)c2cc3cc(O)c(O)cc3[nH]2)CC1)c1cc2cc(O)c(O)cc2[nH]1	IIIB	-	MTT	>176 µM
O=C(/C=C(O)/C=C/c1ccc(O)cc1)/C=C/c1ccc(O)cc1	-	-	cytopathic effect / MTT	>13 µM
Cc1cc(C#N)cc(C)c1Oc1nc(N/N=C/c2ccc(C#N)c(F)c2)nc2ccsc12	IIIB	-	MTT	0.0257 µM
N=C1Sc2cc(-c3ccc4c(c3)OCCO4)ccc2C2=NCCCN12	IIIB	-	MTT	2.6 µM
COc1ccc(C(=O)N2CCC(NC(=O)c3cc(O)c(O)c(O)c3)CC2)cc1	IIIB	-	MTT	>85.7 µM
C[C@@H]1CS(=O)(=O)C[C@@H]1OC(=O)N[C@@H](Cc1ccccc1)[C@H](O)CN1C[C@H]2CCCC[C@H]2C[C@H]1C(=O)NC(C)(C)C	IIIB	-	p24	<0.8 µM
O=C1/C(=C/c2ccc(O)c(O)c2)CC/C1=C\c1ccc(O)c(O)c1	-	-	cytopathic effect / MTT	>15 µM
CC(C)c1c(C(=O)O)cn(Cc2ccncc2)c1Sc1ccccc1	IIIB	-	cytopathic effect / MTT	4.7 µM
Nc1ccn([C@H]2CC[C@@H](CO)O2)c(=O)n1	IIIB	-	MTT	0.0994 µg/mL
CC(C)[C@H]1[C@@H](OC(=O)N[C@@H](Cc2ccccc2)[C@H](O)CN2C[C@H]3CCCC[C@H]3C[C@H]2C(=O)NC(C)(C)C)CCS1(=O)=O	IIIB	-	p24	<0.2 µM
Cc1cn(C[C@H]2C[C@@]2(CO)c2ccccc2)c(=O)[nH]c1=O	-	-	cytopathic effect	>100 µg/mL
N=C1Sc2cc3ccccc3cc2C2=NCCCN12	IIIB	-	MTT	5.7 µM
O=C(NC1CCN(S(=O)(=O)c2ccc(F)cc2)CC1)c1cc(O)c(O)c(O)c1	IIIB	-	MTT	>178.4 µM
CCC[C@@H]1[C@H](OC(=O)N[C@@H](Cc2ccccc2)[C@H](O)CN2C[C@H]3CCCC[C@H]3C[C@H]2C(=O)NC(C)(C)C)CCS1(=O)=O	IIIB	-	p24	<0.8 µM
O=C1CSC(c2c(F)cccc2F)N1c1ncccn1	IIIB	-	cytopathic effect	3.65 µM
CCCCCOCc1cn([C@H]2C[C@H](N=[N+]=[N-])[C@@H](CO)O2)c(=O)[nH]c1=O	IIIB	-	ELISA / antigen	>100 µM
CC(C)=CCN1Cc2cc(Cl)cc3[nH]c(=S)n(c23)C[C@@H]1C	-	RT-L74V K103N	-	<3 µM
O=C(/C=C/c1ccc(O)cc1)c1ccc(O)cc1O	-	-	cytopathic effect / MTT	>7.4 µM
Cc1ccnc2c1NC(=O)c1cccnc1N2C1CC1	RES056	K103N/Y181C	MTT	>15 µM
Nc1nc2c(ncn2CC2CN2CP(=O)(O)O)c(=O)[nH]1	IIIB	-	cytopathic effect / MTT	>100 µM
O=C(Nc1cc(-c2ccc3c(c2)CCCC3)[nH]n1)c1ccc(-c2ccncc2)s1	NL4-3	WT	luminescence	4.37 µM
Nc1ccn(CC2CN2CP(=O)(O)O)c(=O)n1	IIIB	-	cytopathic effect / MTT	>100 µM
COc1ccc2c(c1)C1=NCCCN1C(=N)S2	IIIB	-	MTT	5.3 µM
CC(C)c1nc(CN(C)C(=O)N[C@H](C(=O)N[C@@H](Cc2ccccc2)C[C@H](O)[C@H](Cc2ccccc2)NC(=O)OCc2cncs2)C(C)C)cs1	NL4-3	PR-D30N M46I A71V	p24	<0.04 µM
CC(C)Oc1ccc(Cc2ccccc2)cc1C(=O)CC(=O)C(=O)O	IIIB	-	p24	<0.1 µM
COc1cc(C)nc(N2C(=O)CSC2c2c(Cl)cccc2Cl)n1	IIIB	-	cytopathic effect	0.024 µM
CCCOCc1cn([C@@H]2C[C@H](N=[N+]=[N-])[C@@H](CO)O2)c(=O)[nH]c1=O	IIIB	-	ELISA / antigen	>100 µM
CCOC(=O)CC(=O)N1CCC(NC(=O)c2cc(O)c(O)c(O)c2)CC1	IIIB	-	MTT	>31.3 µM
Cc1cn([C@H]2C[C@H](N=[N+]=[N-])[C@@H](CO)O2)c(=O)[nH]c1=O	-	-	cytopathic effect / MTT	0.25 µM
CCOCc1cn([C@@H]2C[C@H](N=[N+]=[N-])[C@@H](CO)O2)c(=O)[nH]c1=O	IIIB	-	ELISA / antigen	>100 µM
CCOC(=O)c1cn(Cc2ccncc2)c(Sc2cc(Cl)cc(Cl)c2)c1C1CC1	IIIB	-	cytopathic effect / MTT	1.5 µM
O=c1cc(-c2ccc(O)cc2)oc2cc(O)cc(O)c12	NL4-3	-	p24 / ELISA	12.8 µg/mL
CCCCOCc1cn([C@@H]2C[C@H](N=[N+]=[N-])[C@@H](CO)O2)c(=O)[nH]c1=O	IIIB	-	ELISA / antigen	>100 µM
NC(=O)OCc1cn(Cc2ccncc2)c(Sc2cc(Cl)cc(Cl)c2)c1C1CCCCC1	IIIB	-	cytopathic effect / MTT	0.34 µM
O=C(/C=C/c1ccc(O)c(O)c1)c1ccccc1	-	-	cytopathic effect / MTT	>1.7 µM
CC(C)(C)c1ccc(S(=O)(=O)N2CCC(NC(=O)c3cc(O)c(O)c(O)c3)CC2)cc1	IIIB	-	MTT	>131 µM
C=Cc1ccc2c(c1)C1=NCCCN1C(=N)S2	IIIB	-	MTT	2.3 µM
C[C@H]1OCC[C@H]1OC(=O)N[C@@H](Cc1ccccc1)[C@H](O)CN1C[C@H]2CCCC[C@H]2C[C@H]1C(=O)NC(C)(C)C	IIIB	-	p24	<1.6 µM
CS(=O)(=O)N1CCC(NC(=O)c2cc(O)c(O)c(O)c2)CC1	IIIB	-	MTT	>42.4 µM
C=C1[C@H](CO)[C@@H](O)C[C@@H]1n1cnc2c(=O)[nH]c(N)nc21	RES056	K103N/Y181C	MTT	0.035 µM
CC(=O)Oc1c(-c2c(C)cc3c(C(C)C)c(O)c(O)c(C#N)c3c2OC(C)=O)c(C)cc2c(C(C)C)c(O)c(O)c(C#N)c12	LAV-A	-	antigen	32 µM
N=C1Sc2cc(-c3ccccc3)ccc2C2=NCCCN12	IIIB	-	MTT	2.2 µM
[N-]=[N+]=N[C@H]1C[C@@H](n2cc(CO)c(=O)[nH]c2=O)O[C@@H]1CO	IIIB	-	ELISA / antigen	>100 µM
Cc1cc2c(C(C)C)c(O)c(O)c(C=O)c2c(O)c1-c1c(C)cc2c(C(C)C)c(O)c(O)c(C=O)c2c1O	LAV-A	-	antigen	1 µM
Cc1cn(C[C@@H]2C[C@@]2(CO)c2ccccc2)c(=O)[nH]c1=O	-	-	cytopathic effect	>100 µg/mL
N=C1Sc2ccc(-c3ccccc3)cc2C2=NCCCN12	IIIB	-	MTT	2.2 µM
O=C(NCCNC(=O)c1cc2cc(O)c(O)cc2[nH]1)c1cc2cc(O)c(O)cc2[nH]1	IIIB	-	MTT	>153 µM
Cc1cc(C#N)cc(C)c1Oc1nc(N/N=C/c2ccc(C#N)cc2)nc2ccsc12	IIIB	-	MTT	0.0212 µM
Cc1cn([C@H]2C[C@H](N=[N+]=[N-])[C@@H](CO)O2)c(=O)[nH]c1=O	IIIB	-	MTT	0.0071 µM
COC(=O)c1cccc(-c2ccc3c(c2)SC(=N)N2CCCN=C32)c1	IIIB	-	MTT	1.5 µM
COC(=O)N[C@H](C(=O)N[C@@H](Cc1ccc(C#Cc2cnc(N3CC4CCC(C3)N4C3COC3)nc2)cc1)[C@H](CN(Cc1c(F)cc(-c2ccn(C(F)F)n2)cc1F)NC(=O)[C@@H](NC(=O)OC)C(C)(C)C(F)(F)F)OC(=O)CC(C)(C)c1c(CC(=O)N(CCC(=O)O)CCC(=O)O)cc(C)cc1OP(=O)(O)O)C(C)(C)C(F)(F)F	IIIB	-	luminescence	0.1696 µM
CCCOCc1cn([C@H]2C[C@H](N=[N+]=[N-])[C@@H](CO)O2)c(=O)[nH]c1=O	IIIB	-	ELISA / antigen	>100 µM
COC(=O)N[C@H](C(=O)N[C@@H](Cc1ccc(C#Cc2cnc(N3CC4CCC(C3)N4C3COC3)nc2)cc1)[C@H](CN(Cc1c(F)cc(-c2ccn(C(F)F)n2)cc1F)NC(=O)[C@@H](NC(=O)OC)C(C)(C)C(F)(F)F)OC(=O)CC(C)(C)c1c(C)cc(C)cc1OP(=O)(O)O)C(C)(C)C(F)(F)F	IIIB	-	luminescence	0.5773 µM
Cc1ccnc(N2C(=O)CSC2c2c(F)cccc2F)n1	IIIB	-	cytopathic effect	0.39 µM
O=C1/C(=C/c2ccc(O)c(O)c2)CCC/C1=C\c1ccc(O)c(O)c1	-	-	cytopathic effect / MTT	>7.4 µM
CCC[C@H]1[C@@H](OC(=O)N[C@@H](Cc2ccccc2)[C@H](O)CN2C[C@H]3CCCC[C@H]3C[C@H]2C(=O)NC(C)(C)C)CCS1(=O)=O	IIIB	-	p24	<0.4 µM
O=C1CSC(c2c(Cl)cccc2Cl)N1c1ncccn1	IIIB	-	cytopathic effect	0.227 µM
COc1cc(/C=C/C(=O)/C=C/c2ccc(O)c(OC)c2)ccc1O	-	-	cytopathic effect / MTT	>1.4 µM
Cc1ccc(S(=O)(=O)N2CCC(NC(=O)c3cc(O)c(O)c(O)c3)CC2)cc1	IIIB	-	MTT	>66.1 µM
CCC(Cc1ccccc1)c1cc(O)c(C(CC)c2ccccc2)c(=O)o1	IIIB	-	-	3 µM
CC(C)c1c(C(=O)O)cn(Cc2ccncc2)c1Sc1cc(Cl)cc(Cl)c1	IIIB	-	cytopathic effect / MTT	2.1 µM
O=c1c(O)c(-c2ccc(O)c(O)c2)oc2cc(O)cc(O)c12	NL4-3	-	p24 / ELISA	>20 µg/mL
CS(=O)(=O)N1CCC2(CC1)CN=C1c3ccc(Br)cc3SC(=N)N1C2	IIIB	-	MTT	5.2 µM
Cc1ccnc(N2C(=O)CSC2c2c(Cl)cccc2Cl)n1	IIIB	-	cytopathic effect	0.044 µM
N=C1Sc2cc(-c3ccco3)ccc2C2=NCCCN12	IIIB	-	MTT	0.77 µM
O=C(/C=C/c1ncc(-c2ccccc2)cn1)Nc1cc(-c2ccc3c(c2)CCCC3)[nH]n1	NL4-3	K103N	luminescence	1.45 µM

The first 4 rows once more:

SMILES	strain or isolate	mutations	read by	value
CCC[C@@]1(CCc2ccccc2)CC(O)=C([C@H](CC)c2cccc(NS(=O)(=O)c3ccc(C(F)(F)F)cn3)c2)C(=O)O1	IIIB	-	-	0.7 µM
CC(C)[C@@H]1[C@H](OC(=O)N[C@@H](Cc2ccccc2)[C@H](O)CN2C[C@H]3CCC[C@H]3C[C@H]2C(=O)NC(C)(C)C)CCS1(=O)=O	IIIB	-	p24	<0.1 µM
O=C(NCCc1ccc(O)c(O)c1)c1cc2cc(O)c(O)cc2[nH]1	IIIB	-	MTT	46 µM
O=c1ccn(C[C@H]2C[C@@]2(CO)c2ccccc2)c(=O)[nH]1	-	-	cytopathic effect	>100 µg/mL

An empty or dashed field is not shown. Two numbers with a dash give a range or band. ECn: concentration that inhibits the pathogen or its effect by n%.